Anti-infective test results gathered from many reports (values: NIAID ChemDB through PubChem).

Shared fields: tests in culture; species: Candida albicans; endpoint: MIC

Neighbouring rows are from separate reports. Blank or dashed fields: not listed here.

SMILES,strain,result
COc1ccccc1-c1n[nH]c2c1CCCC2,264/624,7.8 µg/mL
CCCCCOc1ccc(-c2ccc(-c3ccc(C(=O)N[C@H]4CCCNC(=O)[C@@H]5C[C@H](N)CN5C(=O)[C@H](CCCN)NC(=O)[C@H](CCc5ccc(O)cc5)NC(=O)[C@@H]5C[C@@H](O)CN5C(=O)[C@H]([C@@H](C)O)NC4=O)cc3)cc2)cc1,ATCC 10231,0.39 µg/mL
C[C@@H](N1CCN(c2ccc(OCC(F)(F)C(F)F)cc2)C1=O)C(O)(Cn1cncn1)c1ccc(F)cc1F,TIMM1756,<0.016 µg/mL
CCCCCCCCCCCOC[n+]1cccc(NCNc2ccc[n+](COCCCCCCCCCCC)c2)c1,ATCC 10231,195 µM
CC1C=C(c2ccc(C(F)(F)F)cc2)C(=O)O1,ATCC 44859,>125 µM
CCCCCCCOCn1c[n+](CNC(=O)c2cccnc2)c2ccccc21,ATCC 10231,1200 µM
CCCCCCCC(O)CC(=O)CCc1ccc(O)c(OC)c1,A1-1,750 µg/mL
CCCCCOc1ccc(-c2ccc(-c3ccc(C(=O)N[C@H]4CCCNC(=O)[C@@H]5C[C@H](NCc6ccccc6)CN5C(=O)[C@H]([C@@H](C)O)NC(=O)[C@H](CCc5ccc(O)cc5)NC(=O)[C@@H]5C[C@@H](O)CN5C(=O)[C@H]([C@@H](C)O)NC4=O)cc3)cc2)cc1,ATCC 38247,6.25 µg/mL
C[C@@H](N1CCN(c2ccc(F)cc2)C1=O)C(O)(Cn1cncn1)c1ccc(F)cc1F,TA,<0.016 µg/mL
C[C@@H](NC(=O)[C@@H](N)Cc1ccccc1)[C@@H](Cc1ccccc1)B1OC2CC3CC(C3(C)C)[C@@]2(C)O1,,≤500 µg/mL
COc1cc(/C=C2\C=C(c3ccc(Oc4ccccc4)cc3)OC2=O)cc(OC)c1OC,,>100 µg/mL
CCCCCCCCCCCC[N+](C)(C)COCC(CC)CC,ATCC 10231,27.5 µM
Clc1ccc(C(Cn2ccnc2)OCc2csc3c(Cl)cccc23)c(Cl)c1,,1.02 µg/mL
CCCCCOc1ccc(-c2ccc(-c3ccc(C(=O)N[C@H]4CCCNC(=O)[C@@H]5C[C@H](NC(=O)C[N+](C)(C)C)CN5C(=O)[C@H]([C@@H](C)O)NC(=O)[C@H](CCc5ccc(O)cc5)NC(=O)[C@@H]5C[C@@H](O)CN5C(=O)[C@H]([C@@H](C)O)NC4=O)cc3)cc2)cc1,ATCC 38247,6.25 µg/mL
CCCCCCCCCCCOCn1c[n+](CNC(=O)c2cccnc2)c2ccccc21,ATCC 10231,265 µM
CC1(C)C2CC3OB([C@H](Cc4ccccc4)[C@@H](Cc4ccccc4)NC(=O)[C@@H](N)CCCCN)O[C@]3(C)C1C2,,≤500 µg/mL
Cc1ccc(-c2nn(-c3ccccc3)cc2/C=N/N=c2\sc3c(=O)[nH]c(C)nc3n2-c2ccccc2)cc1,,100 µg/mL
CC1(C)C2CC3OB(C[C@@H](Cc4ccccc4)NC(=O)[C@H](N)CCCCN)O[C@]3(C)C1C2,,≤500 µg/mL
C[C@@H](c1ncncc1F)[C@](O)(Cn1cncn1)c1ccc(F)cc1F,Isolate 98-234,0.25 µg/mL
O=C1OC(c2ccc(Oc3ccccc3)cc2)=C/C1=C\c1c(Cl)cccc1Cl,,>100 µg/mL
Cc1c(O)cccc1C(=O)N[C@@H](CSc1ccccc1)[C@H](O)CN1C[C@H]2CCCC[C@H]2C[C@H]1C(=O)NC(C)(C)C,I41A,64 µg/mL
Cc1ccc(-c2nn(-c3ccccc3)cc2/C=N/NC(=O)c2sc(=S)n(-c3ccc(C)cc3)c2N)cc1,,>200 µg/mL
C[C@@H](N1CCN(c2ccc(OC(F)(F)F)cc2)C1=O)C(O)(Cn1cncn1)c1ccc(F)cc1F,TIMM1756,<0.016 µg/mL
O=C1OC(c2ccc(Oc3ccccc3)cc2)=C/C1=C\c1cccs1,,50 µg/mL
C[C@@H](N1CCN(c2ccc(C(F)(F)F)cc2)C1=O)C(O)(Cn1cncn1)c1ccc(F)cc1F,TIMM1756,<0.016 µg/mL
CCCCCCCCCCCC[N+](C)(C)CSCCCCCCCC,ATCC 10231,24.5 µM
C[C@@H](NC(=O)[C@@H](N)CCCCN)[C@@H](Cc1ccccc1)B1OC2CC3CC(C3(C)C)[C@@]2(C)O1,,≤500 µg/mL
CCCCCCOCn1c[n+](CNC(=O)c2cccnc2)c2ccccc21,ATCC 10231,1242 µM
C[C@@H](N1CCN(c2ccc(OC(F)(F)C(F)F)cc2)C1=O)C(O)(Cn1cncn1)c1ccc(F)cc1F,TIMM1756,<0.016 µg/mL
CCCCCCCCOc1ccc(N2CCN(c3ccc(C(=O)N[C@H]4CCCNC(=O)[C@@H]5C[C@H](N)CN5C(=O)[C@H]([C@@H](C)O)NC(=O)[C@H](CCc5ccc(O)cc5)NC(=O)[C@@H]5C[C@@H](O)CN5C(=O)[C@H]([C@@H](C)O)NC4=O)cc3)CC2)cc1,ATCC 38247,0.2 µg/mL
CCCCCCCCCCCC[N+](C)(C)COC1CCCCC1,ATCC 10231,138 µM
CCCCCCCOC[n+]1cccc(NCn2cnc3ccccc32)c1,ATCC 10231,2574 µM
N#CC(CC(=O)O)C(N)C(=O)O,IAM4888,25 µg/mL
CC(=O)c1ccc(-c2nc3ncccn3c2N=O)cc1,,9 µg/mL
CC1C=C(c2cccc(Br)c2)C(=O)O1,ATCC 44859,>125 µM
CCCCCCCCCCCCOC[N+](C)(C)CCCCCCCC,ATCC 10231,12.8 µM
Cc1ccc(-c2nn(-c3ccccc3)cc2/C=N/n2c(=S)[nH]c3c(sc(=S)n3-c3ccc(C)cc3)c2=O)cc1,,100 µg/mL
C=C=CCN1C[C@H](OC[C@@]23C[C@@H]4[C@H](C)CC[C@H]4[C@@]4(C=O)C[C@@H]2CC(C(C)C)[C@@]34C(=O)O)O[C@H](C)C1,CL-245 (fluconazole-resistant),≤0.001 µg/mL
OC(Cn1cncn1)(Cn1cncn1)c1ccc(F)cc1F,Berkout KCCM 50235,1.6 µg/mL
C=C1C(=O)OCC1COC(=O)CCCCC,A9540,50 µg/mL
Cc1ccc(-c2nn(-c3ccccc3)cc2/C=N/NC(=O)c2sc(=S)n(-c3ccccc3)c2N)cc1,,>200 µg/mL
Cc1ccc(-c2n[nH]c3c2CCCC3)c(C)c1,264/624,125 µg/mL
CC1(C)C2CC3OB(C[C@@H](Cc4ccccc4)NC(=O)[C@H](Cc4ccccc4)NC(=O)[C@@H](N)Cc4ccccc4)O[C@]3(C)C1C2,,≤500 µg/mL
O=Nc1c(-c2ccccc2)nc2ncccn12,,14 µg/mL
CCCCCOc1ccc(-c2cc(-c3ccc(C(=O)N[C@H]4C[C@@H](O)[C@@H](O)NC(=O)[C@@H]5[C@@H](O)[C@@H](C)CN5C(=O)[C@H]([C@H](O)CC(N)=O)NC(=O)[C@H]([C@H](O)[C@@H](O)c5ccc(O)c(OS(=O)(=O)O)c5)NC(=O)[C@@H]5C[C@@H](O)CN5C(=O)[C@H]([C@@H](C)O)NC4=O)cc3)no2)cc1,90028,0.0625 µg/mL
Cc1ccc(-c2n[nH]c3c2CCCC3)cc1,264/624,3.9 µg/mL
CCCCCCCCCCCC[N+](C)(C)COC(CCC)CCC,ATCC 10231,26.4 µM
C[C@@H](n1ccn(-c2ccc(F)cc2)c1=O)C(O)(Cn1cncn1)c1ccc(F)cc1F,TA,<0.016 µg/mL
CCCCCCCC[N+](C)(C)COCCC(C)CCCC(C)C,ATCC 10231,13.7 µM
C[C@@H](N1CCN(c2ccc(OCC(F)(F)C(F)F)cc2)C1=O)C(O)(Cn1cncn1)c1ccccc1F,TA,<0.016 µg/mL
O=C1/C(=C/c2ccc3c(c2)OCO3)C=C(c2ccc(Oc3ccccc3)cc2)N1Cc1ccccc1,,>100 µg/mL
CCCCCCCOC[n+]1cccc(NCn2nnc3ccccc32)c1,ATCC 10231,>1284 µM
C[C@H](N)C(=O)N[C@@H](CB1OC2CC3CC(C3(C)C)[C@@]2(C)O1)Cc1ccccc1,,≤500 µg/mL
CCCCCOC[n+]1cccc(NCn2nnc3ccccc32)c1,ATCC 10231,>1383 µM
CC(=O)c1ccc(-c2cn3cccnc3n2)cc1,,121 µg/mL
Cc1ccc(-c2nn(-c3ccccc3)cc2/C=N/n2c(=S)[nH]c3c(sc(=S)n3-c3ccccc3)c2=O)cc1,,>200 µg/mL
C=C(C)CN1C[C@H](OC[C@@]23C[C@@H]4[C@H](C)CC[C@H]4[C@@]4(C=O)C[C@@H]2CC(C(C)C)[C@@]34C(=O)O)O[C@H](C)C1,CL-245 (fluconazole-resistant),0.002 µg/mL
CCCCCCCCOCn1c[n+](CNC(=O)c2cccnc2)c2ccccc21,ATCC 10231,1161 µM
CC1C=C(c2ccccc2Cl)C(=O)O1,ATCC 44859,>125 µM
O=Nc1c(-c2ccc(Br)cc2)nc2ncccn12,,5 µg/mL
C[C@@H](N1CCN(c2ccc(OC(F)(F)C(F)F)cc2)C1=O)C(O)(Cn1cncn1)c1ccccc1F,TA,<0.016 µg/mL
CC1(C)O[C@H]2OC(COCC(O)CNCCCCCCCCNC(O)COCC3O[C@@H]4OC(C)(C)O[C@@H]4[C@H]4OC(C)(C)O[C@@H]34)[C@@H]3OC(C)(C)O[C@@H]3[C@H]2O1,,>50 µg/mL
COc1ccc2c(Cc3ccc(C(C)(C)C)cc3)c3[n+](cc2c1OC)CCc1cc2c(cc1-3)OCO2,ATCC200955,1.56 µg/mL
O=C1OC(c2ccc(Oc3ccccc3)cc2)=C/C1=C\c1cccc([N+](=O)[O-])c1,,25 µg/mL
CCC1C=C(c2ccc(Cl)cc2)C(=O)O1,ATCC 44859,125 µM
C=CCN1C[C@H](OC[C@@]23C[C@@H]4[C@H](C)CC[C@H]4[C@@]4(C=O)C[C@@H]2CC(C(C)C)[C@@]34C(=O)O)O[C@H](C)C1,CL-245 (fluconazole-resistant),≤0.001 µg/mL
CCCCCCCCCCOC[N+](C)(C)CCCCCCCC,ATCC 10231,137 µM
C[C@@H](B1OC2CC3CC(C3(C)C)[C@@]2(C)O1)[C@@H](Cc1ccccc1)NC(=O)[C@@H](N)CCCCN,,≤500 µg/mL
CCCCCC1C=C(c2ccc(Br)cc2)C(=O)O1,ATCC 44859,>125 µM

The last 5 rows once more:

SMILES | strain | result
CCC1C=C(c2ccc(Cl)cc2)C(=O)O1 | ATCC 44859 | 125 µM
C=CCN1C[C@H](OC[C@@]23C[C@@H]4[C@H](C)CC[C@H]4[C@@]4(C=O)C[C@@H]2CC(C(C)C)[C@@]34C(=O)O)O[C@H](C)C1 | CL-245 (fluconazole-resistant) | ≤0.001 µg/mL
CCCCCCCCCCOC[N+](C)(C)CCCCCCCC | ATCC 10231 | 137 µM
C[C@@H](B1OC2CC3CC(C3(C)C)[C@@]2(C)O1)[C@@H](Cc1ccccc1)NC(=O)[C@@H](N)CCCCN |  | ≤500 µg/mL
CCCCCC1C=C(c2ccc(Br)cc2)C(=O)O1 | ATCC 44859 | >125 µM